A mixed list of measured activities; the numbers were collected in NIAID ChemDB.

Shared fields: tests in culture; agent: Herpes simplex virus 1; read by: cytopathic effect; read-out: EC50

ECn is the concentration giving n% inhibition of infection, replication or growth. Rows are shuffled and stem from different studies. An empty or dashed field is not shown.

| SMILES | cells | strain | value |
|---|---|---|---|
| O=c1[nH]c(=O)n([C@H]2C[C@H](O)[C@@H](COP(=O)(O)O)O2)cc1/C=C/c1ccccc1 | PRK | McIntyre | 30 µg/mL |
| O=c1[nH]c(=O)n([C@H]2C[C@H](O)[C@@H](CO)O2)cc1Cc1ccccc1 | HSF | KOS | 450 µM |
| O=c1[nH]cnc2c1ncn2OCCOCP(=O)(O)O | MRC-5 | SC16 | >340 µM |
| Cc1cn([C@@H]2O[C@H](CO)[C@@H](O)[C@@H]2O)c(=O)[nH]c1=O | HELF | MP | 0.32 µg/mL |
| CC1(CO)CCC(Cn2cnc3c(=O)[nH]cnc32)C1(C)C | E6SM | KOS | >200 µg/mL |
| Nc1ccn([C@@H]2O[C@H](CO)[C@@H](O)[C@@H]2O)c(=O)n1 | VERO | KOS | 0.34 µM |
| Nc1ncnc2c1ncn2C[C@H](O)CO | PRK | F | >400 µg/mL |
| O=Cc1cn([C@H]2C[C@H](O)[C@@H](CO)O2)c(=O)[nH]c1=O | PRK | VEX149 | 0.4 µg/mL |
| C/C(=C\Cn1cnc2c(=O)[nH]c(N)nc21)CO | CCL18 |  | 32.7 µg/mL |
| Nc1nc(Cl)c2ncn([C@@H](CCO)SCCO)c2n1 | HFF |  | >200 µM |
| O=C(CC1CCCCC1)N(O)c1ccccc1 | E6SM | KOS ACV-resistant TK- | >80 µg/mL |
| CC(C1=NN=C(N(C)c2ccccc2)SC1)N1C(=O)c2ccccc2C1=O | VERO | VR733 | >111 µg/mL |
| Nc1[nH]c(=O)ncc1F | VERO | KOS | >5000 µM |
| CCc1cc(CC)c(CNCc2ccc[nH]2)c(CC)c1 | Human embryonic lung fibroblasts | KOS | >20 µM |
| O=c1[nH]c(=O)n([C@@H]2C[C@H](CO)[C@@H](O)C2)cc1/C=C/Br | PRK | McIntyre | 0.02 µg/mL |
| O=c1[nH]c(=O)n([C@H]2C[C@H](O)[C@@H](COP(=O)(O)O)O2)cc1CCc1ccccc1 | PRK | McIntyre | 30 µg/mL |
| OCC(=CCn1cnc2c(Cl)ncnc21)CO | CCL18 |  | 79.5 µg/mL |
| O=C1c2ccccc2C(=O)N1Cc1cc2c(cc1O)Sc1ccccc1N2C(Nc1ccccc1)c1ccc(-c2ccccc2)cc1 |  | 753166 | 7.8 µg/mL |
| Cc1cn(C(CCO)OCCO)c(=O)[nH]c1=O | HFF |  | >200 µM |
| O=c1[nH]c(=O)n([C@H]2C[C@H](O)[C@@H](CO)O2)cc1I | HSF | KOS | 0.4 µg/mL |
| CCc1c(CN[C@@H]2CCCC[C@H]2N)c(CC)c2c(CC)c1CN[C@@H]1CCCC[C@H]1NCc1ccc([nH]1)CN[C@@H]1CCCC[C@H]1NC2 | Human embryonic lung fibroblasts | TK- KOS ACVr | >20 µM |
| CC(=O)N(C1=NN=C(C(C)N2C(=O)c3ccccc3C2=O)CS1)c1ccccc1 | VERO | VR733 | >37.04 µg/mL |
| C/C(=C\Cn1cnc2c(N)ncnc21)CO | CCL18 |  | >100 µg/mL |
| CSCc1cn([C@H]2C[C@H](O)[C@@H](CO)O2)c(=O)[nH]c1=O | PRK | VDX348 | 40 µg/mL |
| O=c1[nH]c(=O)n([C@H]2C[C@@H](CO)[C@H](O)C2)cc1I | PRK | B2006 (TK-) | >400 µg/mL |
| CCc1c2c(CC)c(CN[C@H]3CCCC[C@@H]3N)c(CC)c1CN[C@H]1CCCC[C@@H]1NCc1ccc([nH]1)CN[C@H]1CCCC[C@@H]1NC2 | Human embryonic lung fibroblasts | TK- KOS ACVr | >20 µM |
| Nc1nc2c(ncn2COCCO)c(=O)[nH]1 | HFF | V74140 (acyclovir-susceptible) | 0.5 µg/mL |
| O=C1c2ccccc2C(=O)N1CC1=NNC(=Nc2ccccc2)SC1 | VERO | VR733 | >111 µg/mL |
| O=c1[nH]c(=O)n(C2CC(CO)[C@H](O)C2)cc1I | PRK | VMW1837 (TK-) | >400 µg/mL |
| C/C(=C\Cn1cnc2c(Cl)ncnc21)CO | CCL18 |  | >100 µg/mL |
| O=c1[nH]c(=O)n([C@H]2C[C@H](O)[C@@H](CO)O2)cc1/C=C/Br | HEL | B2006 (TK-) | >601 µM |
| CCCNCc1ccc(CNCc2c(CC)c(CNCc3ccc(CNCCC)[nH]3)c(CC)c(CNCc3ccc(CNCCC)[nH]3)c2CC)[nH]1 | Human embryonic lung fibroblasts | KOS | >20 µM |
| Nc1nc2c(ncn2[C@@H](CCO)OCCO)c(=O)[nH]1 | HFF |  | >200 µM |
| CC1(CO)CCC(Cn2ccc(=O)[nH]c2=O)C1(C)C | E6SM | TK-/B2006 | >400 µg/mL |
| [N-]=[N+]=NCc1cn([C@H]2C[C@H](O)[C@@H](CO)O2)c(=O)[nH]c1=O | PRK | VEX142 | 7 µg/mL |
| O=C(CC1CCCCC1)N(O)c1ccc(Cl)cc1 | E6SM | KOS ACV-resistant TK- | >80 µg/mL |
| O=c1[nH]c(=O)n([C@H]2C[C@H](O)[C@@H](CO)O2)cc1/C=C/Br | E6SM | KOS TK- acyclovir-resistant | >80 µg/mL |
| O=c1[nH]c(=O)n([C@@H]2C[C@H](CO)[C@@H](O)C2)cc1I | PRK | B2006 (TK-) | >400 µg/mL |
| Nc1nccc2c1ncn2[C@@H]1C[C@H](CO)[C@@H](O)[C@H]1O |  | TK-/VMW 1837 | >400 µg/mL |
| Nc1nc2c(ncn2COCCO)c(=O)[nH]1 | PRK | McIntyre | 0.1 µg/mL |
| CC1(CO)CCC(Cc2nc3ncnc(N)c3[nH]2)C1(C)C | E6SM | KOS | >200 µg/mL |
| Nc1nc2c(ncn2COC(CO)CO)c(=O)[nH]1 | HEL | HU-3 | 0.0028 µM |
| Nc1nc(=O)n([C@@H]2OC3COP(=O)([O-])OC3[C@H]2O)cc1F | VERO | KOS | 220 µM |
| CCCCCCCC/C=C/CCCCCCCC(=O)OCC(CO)OCn1cnc2c(=O)[nH]c(N)nc21 | HEL | B2006 (TK-) | >10 µM |
| Nc1nc2c(ncn2[C@H]2C=C[C@@H](CO)[C@H](O)C2)c(=O)[nH]1 | E6SM | VMW1837 (TK-/TK+) | 0.01 µg/mL |

A second listing of 3 rows from above:

| SMILES | cells | strain | value |
|---|---|---|---|
| CC1(CO)CCC(Cn2cnc3c(=O)[nH]cnc32)C1(C)C | E6SM | KOS | >200 µg/mL |
| Nc1nc2c(ncn2[C@H]2C=C[C@@H](CO)[C@H](O)C2)c(=O)[nH]1 | E6SM | VMW1837 (TK-/TK+) | 0.01 µg/mL |
| CCc1c(CN[C@@H]2CCCC[C@H]2N)c(CC)c2c(CC)c1CN[C@@H]1CCCC[C@H]1NCc1ccc([nH]1)CN[C@@H]1CCCC[C@H]1NC2 | Human embryonic lung fibroblasts | TK- KOS ACVr | >20 µM |